{"sequences": {"note": "Amino acid sequences for entries named in this document (tags omitted). Residues count along the entry.", "UniProt P08149, 44-581 limits assumed": "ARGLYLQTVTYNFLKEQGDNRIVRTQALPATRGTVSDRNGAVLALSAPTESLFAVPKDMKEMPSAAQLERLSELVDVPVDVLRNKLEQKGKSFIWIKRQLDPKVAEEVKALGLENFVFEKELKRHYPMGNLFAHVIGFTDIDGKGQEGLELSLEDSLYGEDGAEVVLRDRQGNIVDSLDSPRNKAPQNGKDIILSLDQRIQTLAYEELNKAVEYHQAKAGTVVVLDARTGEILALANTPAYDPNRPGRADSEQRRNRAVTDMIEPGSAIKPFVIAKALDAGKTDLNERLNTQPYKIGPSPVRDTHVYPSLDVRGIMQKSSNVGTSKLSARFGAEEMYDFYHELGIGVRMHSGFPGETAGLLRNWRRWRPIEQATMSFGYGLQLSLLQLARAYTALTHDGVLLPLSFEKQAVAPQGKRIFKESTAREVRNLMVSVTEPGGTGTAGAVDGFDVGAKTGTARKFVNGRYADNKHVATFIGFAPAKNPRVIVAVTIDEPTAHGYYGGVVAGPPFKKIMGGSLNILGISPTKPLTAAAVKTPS"}, "source": "paper PMC3458020", "about": "“High-Throughput Screening for Novel Inhibitors of Neisseria gonorrhoeae Penicillin-Binding Protein 2” (PLoS ONE, 2012)", "key": {"[1]": {"molecular_target": "T1, N. gonorrhoeae PBP 2 (Neisseria gonorrhoeae, UniProt P08149)", "experiment": "FP high-throughput screening assay (Bocillin-FL binding to PBP 2)", "conditions": "FP signal of individual compound with PBP 2 and Bocillin-FL; four replicates", "description": "(§1) A soluble construct of wild-type PBP 2 from the penicillin-susceptible strain of N. gonorrhoeae FA19 was expressed and purified as described previously. Bocillin FL™ was obtained from Invitrogen Inc. (Carlsbad, CA). Penicillin G and γ-Globulins from bovine blood (BGG) were purchased from Sigma (St. Louis, MO). Prior to use, all reagents were diluted in an assay buffer comprising 50 mM potassium phosphate, pH 8, and 0.1 mg/ml BGG. The DIVERSet library of 50,080 small lead compounds from ChemBridge Corporation (San Diego, CA) was provided by the MUSC Drug Discovery Core (DDC). […]\n(§2) Measurements of fluorescence and FP were performed on a Spectramax M5 microplate reader (Molecular Devices, Sunnyvale, CA) with excitation and emission wavelengths of 485 nm and 520 nm, respectively, using a 515 nm filter to block residual excitation light and to minimize background interference. […] To minimize the polarization effects from any fluorophore bound to the surface of the well, both excitation and emission data were recorded from the top of the well. Reading time was 100 ms per well. […] Using the equation G = Iv/Ih and SoftMax® Pro Data Acquisition & Analysis Software (Molecular Devices, Sunnyvale, CA), the G-factor was determined with dilution series of Bocillin-FL-only (free tracer). […]"}, "[2]": {"molecular_target": "T1, N. gonorrhoeae PBP 2", "experiment": "FP-based concentration-response competition assay with Bocillin-FL", "type": "binding", "conditions": "read-out: IC50 measured by FP, 0.01–200 µM compound, 1 µM PBP 2, 1 µM Bocillin-FL, four replicates", "description": "as §1, §2"}}, "note": "Like-named read-outs stand apart in the source and are kept apart here."}
{"smiles": "CC1=C(C(=O)O)N2C(=O)C(NC(=O)Cc3ccccc3)C2SC1", "note": "(stereo not drawn)", "values": [{"measurement": "Compound (mP) (mean ± SD)", "setting": "[1]", "result": "51.8±3.7", "unit": "mP"}, {"measurement": "IC50", "setting": "[2]", "result": 3.1, "unit": "µM"}, {"measurement": "IC50", "setting": "[2]; listed as cephalosporin", "result": 3, "unit": "µM"}]}
